Assay results published in paper PMC12319226 (Frontiers in Bioinformatics, 2025).

Key:
Assay in all cases: BLI
Conditions in all cases: both partners purified
fHbp m001691 = target: T1, fHbp m001691 (Neisseria meningitidis; fHbp …, point mutant)
T1 chain: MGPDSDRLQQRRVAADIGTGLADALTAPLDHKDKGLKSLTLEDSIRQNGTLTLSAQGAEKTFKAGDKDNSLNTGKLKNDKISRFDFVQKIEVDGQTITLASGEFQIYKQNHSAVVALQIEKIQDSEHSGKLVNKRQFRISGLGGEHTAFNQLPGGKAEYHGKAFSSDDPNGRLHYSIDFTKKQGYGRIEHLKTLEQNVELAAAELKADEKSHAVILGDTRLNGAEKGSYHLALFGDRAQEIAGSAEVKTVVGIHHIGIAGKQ

fHbp m001927 = target: T2, fHbp m001927 (Neisseria meningitidis; fHbp …, chimera)
T2 chain: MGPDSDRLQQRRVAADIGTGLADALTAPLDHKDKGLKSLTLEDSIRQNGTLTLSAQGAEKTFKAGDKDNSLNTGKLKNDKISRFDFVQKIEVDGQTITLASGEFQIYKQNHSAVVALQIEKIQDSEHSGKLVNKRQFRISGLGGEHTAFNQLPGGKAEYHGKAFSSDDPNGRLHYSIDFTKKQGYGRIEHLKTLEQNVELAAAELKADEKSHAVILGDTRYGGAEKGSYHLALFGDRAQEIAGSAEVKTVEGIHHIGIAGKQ

fHbp m001932 = target: T3, fHbp m001932 (Neisseria meningitidis; fHbp …, chimera)
T3 chain: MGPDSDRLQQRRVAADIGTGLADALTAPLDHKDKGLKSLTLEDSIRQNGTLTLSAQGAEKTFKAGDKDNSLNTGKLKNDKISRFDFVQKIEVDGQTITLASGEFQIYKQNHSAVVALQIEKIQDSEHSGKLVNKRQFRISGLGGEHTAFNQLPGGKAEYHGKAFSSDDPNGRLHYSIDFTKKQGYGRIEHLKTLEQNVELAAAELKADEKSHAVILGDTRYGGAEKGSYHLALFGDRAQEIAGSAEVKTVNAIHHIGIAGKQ

fHbp m002332 = target: T4, fHbp m002332 (Neisseria meningitidis; fHbp …, chimera)
T4 chain: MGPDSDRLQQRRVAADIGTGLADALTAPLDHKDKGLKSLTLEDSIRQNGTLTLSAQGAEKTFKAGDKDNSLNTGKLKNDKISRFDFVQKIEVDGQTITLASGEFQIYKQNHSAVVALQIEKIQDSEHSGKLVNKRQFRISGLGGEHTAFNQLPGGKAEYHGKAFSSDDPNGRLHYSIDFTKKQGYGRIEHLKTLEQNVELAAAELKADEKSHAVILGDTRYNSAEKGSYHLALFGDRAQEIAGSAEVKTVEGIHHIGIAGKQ

fHbp m002335 = target: T5, fHbp m002335 (Neisseria meningitidis; fHbp …, chimera)
T5 chain: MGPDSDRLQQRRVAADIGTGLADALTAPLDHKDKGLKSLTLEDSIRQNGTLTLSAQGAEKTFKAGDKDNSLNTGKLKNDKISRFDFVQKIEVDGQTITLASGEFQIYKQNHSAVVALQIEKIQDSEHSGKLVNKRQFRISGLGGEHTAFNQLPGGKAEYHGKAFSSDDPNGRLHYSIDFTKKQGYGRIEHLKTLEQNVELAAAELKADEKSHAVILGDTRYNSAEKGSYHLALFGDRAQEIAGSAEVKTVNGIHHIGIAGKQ

fHbp m002389 = target: T6, fHbp m002389 (Neisseria meningitidis; fHbp …, chimera)
T6 chain: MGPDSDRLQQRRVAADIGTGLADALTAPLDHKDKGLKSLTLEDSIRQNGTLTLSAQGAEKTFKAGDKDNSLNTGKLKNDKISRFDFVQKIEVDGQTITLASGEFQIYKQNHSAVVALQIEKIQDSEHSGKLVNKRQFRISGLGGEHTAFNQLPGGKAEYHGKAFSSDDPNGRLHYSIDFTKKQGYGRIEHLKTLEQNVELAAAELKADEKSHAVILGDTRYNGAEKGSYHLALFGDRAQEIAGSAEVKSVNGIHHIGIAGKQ

fHbp m002416 = target: T7, fHbp m002416 (Neisseria meningitidis, designed fHbp …, chimera)
T7 construct: also called fHbp 2,416; Round 2 best mutant
T7 chain: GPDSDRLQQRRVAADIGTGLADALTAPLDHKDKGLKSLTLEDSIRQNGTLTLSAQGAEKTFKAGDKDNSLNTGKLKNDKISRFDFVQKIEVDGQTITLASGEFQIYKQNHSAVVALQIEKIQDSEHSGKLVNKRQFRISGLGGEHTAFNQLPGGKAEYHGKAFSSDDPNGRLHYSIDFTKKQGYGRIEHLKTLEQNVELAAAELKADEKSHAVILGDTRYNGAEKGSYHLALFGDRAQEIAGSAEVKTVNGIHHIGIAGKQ

fHbp m002420 = target: T8, fHbp m002420 (Neisseria meningitidis, designed fHbp …, chimera)
T8 chain: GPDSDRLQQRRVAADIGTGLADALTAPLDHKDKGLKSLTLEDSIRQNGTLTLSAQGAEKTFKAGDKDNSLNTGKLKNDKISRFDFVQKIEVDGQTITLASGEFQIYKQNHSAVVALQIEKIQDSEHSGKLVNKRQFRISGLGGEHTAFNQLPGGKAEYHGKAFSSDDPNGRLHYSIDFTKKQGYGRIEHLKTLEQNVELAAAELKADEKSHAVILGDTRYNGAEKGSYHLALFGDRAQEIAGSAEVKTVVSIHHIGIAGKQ

fHbp m002421 = target: T9, fHbp m002421 (Neisseria meningitidis, designed fHbp …, point mutant)
T9 chain: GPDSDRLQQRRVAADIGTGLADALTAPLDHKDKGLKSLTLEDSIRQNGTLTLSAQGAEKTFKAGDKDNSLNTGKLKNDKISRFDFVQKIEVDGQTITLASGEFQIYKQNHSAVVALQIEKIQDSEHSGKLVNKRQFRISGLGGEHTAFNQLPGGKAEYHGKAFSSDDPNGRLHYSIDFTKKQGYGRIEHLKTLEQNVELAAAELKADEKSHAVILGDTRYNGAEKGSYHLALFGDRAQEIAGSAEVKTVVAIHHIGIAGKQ

B1: chimeric antibody hJAR5 (antibody, V domains shown)
VH: QVQMQQPGAELVKPGASVKLSCKASGYTFISYWMHWVKQRPGRGLEWIGRIAPDTGIIYYNEKFKNKATLTVDTPSSTAYMQLNSLTSEDSAVYYCARYLKYDGSTYRFDYWGQGTTLTVSS
VL: DIVMTQAAPSVPVTPGESVSISCRSSKSLLHSNGNTYLFWFLQRPGQSPQLLIYRMSNLASGVPDRFSGSGSGTSFTLRISRVEAEDVGVYYCMQHLEYPYTFGGGTKLEIK
notes: also called hJAR5-2; humanized JAR5; source: Expi293, purified (MabSelect SuRe, SEC); copies: 2 + 2
fHbp m001691
  koff: 0.000302 s⁻¹
  kon: 360100 ± 2370 M⁻¹ s⁻¹
fHbp m001927
  kon: 450900 ± 1400 M⁻¹ s⁻¹
fHbp m001932
  kon: 251000 ± 1280 M⁻¹ s⁻¹
fHbp m002332
  koff: 0.000304 s⁻¹
  kon: 458500 ± 1890 M⁻¹ s⁻¹
fHbp m002335
  koff: 0.000316 s⁻¹
fHbp m002389
  koff: 0.000357 s⁻¹
  kon: 462400 ± 1740 M⁻¹ s⁻¹
fHbp m002416
  kon: 440100 ± 3820 M⁻¹ s⁻¹
fHbp m002420
  koff: 0.000175 s⁻¹
  kon: 683900 ± 4300 M⁻¹ s⁻¹
fHbp m002421
  koff: 0.00024 s⁻¹
